Patent US20260274928A1 (VIR BIOTECHNOLOGY, published 2026)

Tests used:
SARS-CoV-2 BA.2 RBD = target: T1, SARS-CoV-2 BA.2 RBD (SARS-CoV-2 BA.2); experiment: RBD binding affinity (SPR, see Example 5)
T1 construct: domain: RBD

SARS-CoV-2 BA.4/5 RBD = target: T2, SARS-CoV-2 BA.4/5 RBD (SARS-CoV-2 BA.4/5); experiment: RBD binding affinity (SPR, see Example 5)
T2 construct: domain: RBD

SARS-CoV-2 BA.2.75 RBD = target: T3, SARS-CoV-2 BA.2.75 RBD (SARS-CoV-2 BA.2.75); experiment: RBD binding affinity (SPR, see Example 5)
T3 construct: domain: RBD

SARS-CoV-2 BA.2.75.2 RBD = target: T4, SARS-CoV-2 BA.2.75.2 RBD (SARS-CoV-2 BA.2.75.2); experiment: RBD binding affinity (SPR, see Example 5)
T4 construct: domain: RBD

SARS-CoV-2 BA.4.6 RBD = target: T5, SARS-CoV-2 BA.4.6 RBD (SARS-CoV-2 BA.4.6); experiment: RBD binding affinity (SPR, see Example 5)
T5 construct: domain: RBD

SARS-CoV-2 BQ.1.1 RBD = target: T6, SARS-CoV-2 BQ.1.1 RBD (SARS-CoV-2 BQ.1.1); experiment: RBD binding affinity (SPR, see Example 5)
T6 construct: domain: RBD

[1] = target: SARS-CoV-2 XBB.1.5 S glycoprotein (SARS-CoV-2 XBB.1.5); experiment: cell-based or functional assay
SARS-CoV-2 XBB.1.5 RBD = target: T7, SARS-CoV-2 XBB.1.5 RBD (SARS-CoV-2 XBB.1.5); experiment: RBD binding affinity (SPR, see Example 5)
T7 construct: domain: RBD

B1: S3L17 (antibody, V domains shown)
VH: EVQLVESGGGLVQPGGSLRLSCAASEIIVSSNYMNWVRQAPGKGLEWVSVIYAGGSTFYADSVRGRFTISRDNSKNTLYLQMNSLRPDDTAIYYCARDLGPWGMDVWGQGTTVTVSS
VL: DIQMTQSPSSLSASVGDRVAITCRASHGINNDLAWYQQKPGKVPKLLIYAASTLQSGVPSRFSGSGSGTDFTLTISSLQPEDVATYYCQHYSSDPRFTFGPGTKVDIK
- Kd (SARS-CoV-2 BA.2 RBD): 0.18 nM
- Kd (SARS-CoV-2 BA.4/5 RBD): 0.08 nM
- Kd (SARS-CoV-2 BA.2.75 RBD): 0.27 nM
- Kd (SARS-CoV-2 BA.2.75.2 RBD): 1.29 nM
- Kd (SARS-CoV-2 BA.4.6 RBD): 0.05 nM
- Kd (SARS-CoV-2 BQ.1.1 RBD): 1.26 nM

B2: S2V29-v1.2 (antibody, V domains shown)
VH: EVQLVESGGSVVQPGRALRLSCAASGITFSSFGMYWVRQAPGKGLEWLGVIAYDGSNTYYADSVKGRFTISRDNSKNTLYLQMNSLRIEDTAVYYCAKDYYPLLSYYYGLDVWGQGTTVTVSS
VL: QSVLTQPRSVSGSPGQSVTISCTGTSSDVGAYNYVSWYQQHPGKAPKFMIYDVDQRPSGVPDRFSGSKSGNTASLIISGLQAEDEADYYCSSYAGSYIWVFGGGTQLTVL
- Kd (SARS-CoV-2 BA.2 RBD): 0.02 nM
- Kd (SARS-CoV-2 BA.4/5 RBD): 0.04 nM
- Kd (SARS-CoV-2 BA.2.75 RBD): 0.03 nM
- Kd (SARS-CoV-2 BA.2.75.2 RBD): < 0.02 nM
- Kd (SARS-CoV-2 BA.4.6 RBD): < 0.02 nM
- Kd (SARS-CoV-2 BQ.1.1 RBD): < 0.02 nM

B3: S2V29-v37.2 (antibody, V domains shown)
VH: EVQLVESGGSVVQPGRALRLSCAASGITFSSFGMYWVRQAPGKGLEWLGYIAYDGSDTYYADSVKGRFTISRDNSKNTLYLQMNSLRIEDTAVYYCAKDYYPLLSYYYGLDVWGQGTTVTVSS
VL: QSVLTQPRSVSGSPGQSVTISCTGTSSDVGAYNYVSWYQQHPGKAPKFMIYDVDQRPSGVPDRFSGSKSGNTASLIISGLQAEDEADYYCSSYAGSYIWVFGGGTQLTVL
- IC50 [1]: 3.4 ng/mL
- Kd (SARS-CoV-2 BA.2 RBD): 0.37 nM
- Kd (SARS-CoV-2 BA.4/5 RBD): 0.2 nM
- Kd (SARS-CoV-2 BQ.1.1 RBD): 0.08 nM
- Kd (SARS-CoV-2 XBB.1.5 RBD): 0.07 nM
